The values that follow come from patent publication US20040166565A1.

The experiment has as its target KDR/flk-1 receptor (UniProt P35968). Kind of experiment: cell-based or functional assay.

For “SLT-VEGF/L fusion protein (from UniProt P10149 23-315; P15692 27-147)”, the IC50 of growth inhibition of PAE/KDR cells (72 hours, cell count) is 0.15 nM. As for “SLT-VEGF/S fusion protein (from UniProt P10149 84-286; P15692 27-147)”, the IC50 of growth inhibition of PAE/KDR cells (72 hours, cell count) amounted to 0.15 nM.
